Target: MucR_(33-142) deletion mutant (Brucella abortus)
Test: SEC-MALS

Question: Which stoichiometry N does the source give for “MucR_(33-142) deletion mutant (domain or fragment)” here?
Answer: Its stoichiometry N is 10.5.
